From PMC8765437, “GSK3640254 Is a Novel HIV-1 Maturation Inhibitor with an Optimized Virology Profile” (Antimicrobial Agents and Chemotherapy, 2022)
Where two headings read alike, the source gives them in different places.

Columns and labels:
[1] = test system: NLRepRlucP373S-based viruses; format: cell-based, HIV-1
[2] = test system: NLRepRlucP373S viruses containing Gag SDMs or gag/pr genes from clinical isolates; test: Multiple-cycle replication assay, NLRepRluc reporter viruses in MT-2 cells, luciferase endpoint; format: cell-based, HIV-1; conditions: viruses with V362I
From the text: Multiple-cycle assays using recombinant viruses or clinical isolates were used to assess MI antiviral activity as described previously ([10]). pNLRepRlucP373S (the P373S change is in the Gag gene and converts an outlier polymorphism in the NL4-3 gene to the prevalent amino acid in the population) plasmids containing SDMs in Gag or gag/pr regions from clinical isolates were transfected into HEK 293T cells, and the supernatant containing recombinant virus was harvested after 4 to 5 days. Virus was used to infect MT-2 cells in the presence of a 3-fold serially diluted compound at a final dimethyl sulfoxide (DMSO) concentration of 1%. The inocula of the reporter viruses were determined based on the luciferase activity detected on day 4 postinfection. […] Virus growth was determined on days 4 to 5 postinfection for reporter variants or days 5 to 11 for the other viruses. The reporter viruses were detected by a luciferase assay according to manufacturer protocols (Brite-Glo luciferase kit [Promega] for CEM-NKR-CCR5-Luc cells and Dual-Luciferase Reporter 1000 assay system [Promega] for the other cells), and luminescence was detected on a Wallac Trilux. The growth of clinical isolates in PBMCs was quantitated by reverse transcriptase activity in a 96-well scintillation proximity assay (SPA). […]

[3] = test system: MT-2 cells; test: Cytotoxicity in MT-2 cells (MTS, 4-day incubation); conditions: for all viruses shown in Table 1
[4] = test system: HIV-1 Gag VLPs; format: binding; conditions: A364V VLP
Method: (§1) In a 96-well white low-binding plate (Corning; Corning, NY), 0.5 to 1.2 μg of WT or other polymorphic or mutant VLPs was mixed in 40 μl of PBS with SPA beads (100 μg/well, PVT-WGA SPA beads; PerkinElmer) for 1 h at room temperature, and then the volume was increased to 200 μl/well by the addition of binding buffer (100 mM Tris [pH 6.5], 2 mM EDTA, 0.03% Tween 20, and 5 mM MgCl2). Serial dilutions of ^3H-MIs were then added to wells. The final concentration of DMSO in the assay was 10% (vol/vol). After an approximately 4-h equilibration at room temperature, bound ^3H-MIs were measured using a Top Count or Microbeta2 plate reader (PerkinElmer). Kd values were calculated by fitting the data using GraphPad Prism v5.1.

[5] = molecular target: T1, HIV-1 Gag VLPs (Human immunodeficiency virus type 1 group M subtype B, UniProt P04591, DEL370-370); format: binding; conditions: ΔV370 VLP
T1 construct: made in house; host or cells: HEK 293T
Method: as §1

[6] = molecular target: T2, HIV-1 Gag VLPs (Human immunodeficiency virus type 1 group M subtype B, UniProt P04591, V362I/V370A); format: binding; conditions: V362I/V370A VLP
T2 construct: made in house; host or cells: HEK 293T
Method: as §1

[7] = molecular target: T3, HIV-1 Gag VLPs (Human immunodeficiency virus type 1 group M subtype B, UniProt P04591, V370A); format: binding; conditions: V370A VLP
T3 construct: made in house; host or cells: HEK 293T
Method: as §1

[8] = molecular target: T4, HIV-1 Gag VLPs (Human immunodeficiency virus type 1 group M subtype B, UniProt P04591, V362I); format: binding; conditions: V362I VLP
T4 construct: made in house; host or cells: HEK 293T
Method: as §1

[9] = molecular target: T5, HIV-1 Gag VLPs (Human immunodeficiency virus type 1 group M subtype B, UniProt P04591, A364V); format: binding; conditions: A364V VLP
T5 construct: made in house; host or cells: HEK 293T
Method: as §1

With `C=C(C)[C@@H]1CC[C@]2(NCCN3CCS(=O)(=O)CC3)CC[C@]3(C)[C@H](CC[C@@H]4[C@@]5(C)CC=C(C6=CC[C@@](CF)(C(=O)O)CC6)C(C)(C)[C@@H]5CC[C@]43C)[C@@H]12` [GSK’254] the “Serum effect (±HS EC50 ratio)” value ([1]; V370A) was 6.1, the “Serum effect (±HS EC50 ratio)” value ([1]; ΔV370) was 8.7 and the “fold more sensitive to GSK’254 than to GSK’795” value [2] was “approximately 4 fold”. The therapeutic index [3] was “over 1,000”, the “fold reduced affinity versus WT” value [4] was 6.5 fold and the “Relative GSK’254/GSK’795 affinity” value [5] was 9.0. For the same compound, the “Relative GSK’254/GSK’795 affinity” value [6] was 10.0, the “Relative GSK’254/GSK’795 affinity” value [7] was 9.3 and the “Relative GSK’254/GSK’795 affinity” value [8] was 7.2. The “Relative GSK’254/GSK’795 affinity” value [9] was 1.8.
